Measured values from several laboratories, pooled; numbers as filed in NIAID ChemDB.

All rows: whole-cell or culture tests; agent: Candida albicans

Neighbouring rows are from separate reports.

SMILES | strain or isolate | method | endpoint | result
COC1[C@@H](O)[C@@H](O)C(O)[C@H](O)[C@H]1O |  |  | MIC | 75 µg/mL
O=c1c(O)c(-c2ccc(O)c(O)c2)oc2cc(O)cc(O)c12 | ATCC 10231 | broth dilution | MIC | 100 µg/mL
O=c1oc2ccccc2c(O)c1C(c1c(O)c2ccccc2oc1=O)c1c[nH]c2ccccc12 |  | agar diffusion / agar | MIC | 50 µg/mL
CC/C=C/[C@H](CC)C/C(=C/[C@@]1(CC)C[C@H](CC)[C@H](CC(=O)O)OO1)CC |  |  | EC50 | 3 µg/mL
COc1cc(O)c2c(c1)O[C@H](c1ccc(O)cc1)CC2=O |  |  | MIC | 100 µg/mL
COc1ccc(-c2csc(NS(=O)(=O)C3C(=O)ONN3c3ccc(C)cc3)n2)cc1 | MTCC 227 | broth dilution | MIC | 500 µg/mL
Clc1nc(NC2CC2)nc(N2CCC(Cc3ccccc3)CC2)n1 | MTCC 183 | agar | MIC | 100 µg/mL
CCC(C)n1ncn(-c2ccc(N3CCN(c4ccc(OC[C@H]5CO[C@](Cn6cncn6)(c6ccc(Cl)cc6Cl)O5)cc4)CC3)cc2)c1=O | Isogenic isolate 11 (25X) |  | MIC | 0.03 µg/mL
CN(Cc1ccc(C(C)(C)C)cc1)Cc1cccc2ccccc12 | 57 strains |  | MIC | >100 µg/mL
Oc1ccc2c(c1)O[C@H](c1ccc3c(c1)OCO3)CC2 |  |  | MIC | 6 µg/mL
Clc1nc(NC2CC2)nc(N2CCN(c3ccccn3)CC2)n1 | MTCC 183 | agar | MIC | 100 µg/mL
Cc1ccc(N2NOC(=O)C2S(=O)(=O)Nc2ccc(-n3c(-c4cccc([N+](=O)[O-])c4)nc4ccccc4c3=O)cc2)cc1 | MTCC 227 | broth dilution | MIC | 500 µg/mL
COc1ccnc(C(=O)NCC=C(C)C=C(C)C=C(C)C2COC(=O)C(Cc3ccccc3)C(OC(=O)C(C)C)C(C)OC2=O)c1O | IFO1061 |  | MIC | 100 µg/mL
C=C(Cc1ccc(O)cc1)C(=C)Cc1ccc(O)cc1 |  |  | MIC | >200 µg/mL
C[C@H](CCC1NC1(C)C)[C@H]1CC[C@]2(C)C3CC=C4C(C)(C)C(O)CC[C@]4(C)C3CC[C@]12C | ATCC 10231 |  | MIC90 | >16 µg/mL
Cc1nn(-c2ccccc2)c2c1C(c1c(O)c3ccccc3oc1=O)c1c(oc3ccccc3c1=O)O2 |  | agar diffusion / agar | MIC | 50 µg/mL
Cc1ccc(N2NOC(=O)C2S(=O)(=O)Nc2nc3ccc(C)cc3s2)cc1 | MTCC 227 | broth dilution | MIC | 250 µg/mL
O=c1c(O)cc([C@H]2Oc3cc(O)cc(O)c3C[C@H]2O)cc2c([C@H]3Oc4cc(O)cc(O)c4C[C@H]3O)cc(O)c(O)c12 | NCTC 3179 | turbidity | MIC | 1024 µg/mL
CCOP(=O)(OCC)OC[C@@H](O)[C@@H](O)[C@H](O)[C@@H](N)CO | ATCC26278 |  | MIC | 600 µg/mL
Cc1ccc(-c2cc(-c3ccc4oc(=O)c(-c5ccccc5)c(C)c4c3)nc3c2Cc2ccccc2-3)cc1 | MTCC 227 | broth dilution / turbidity | MIC | 500 µg/mL
O=C(O)c1cc(O)c(O)c(O)c1 | ATCC 10231 | broth dilution | MLC | 200 µg/mL
CCC(C)n1ncn(-c2ccc(N3CCN(c4ccc(OC[C@H]5CO[C@](Cn6cncn6)(c6ccc(Cl)cc6Cl)O5)cc4)CC3)cc2)c1=O |  |  | MIC | 4 µg/mL
CC/C=C/C(CC)CCC[C@@]1(CC)C[C@H](CC)[C@H](CC(=O)O)OO1 |  |  | MIC | 2.5 µg/mL
C[C@@H]1[C@H](O)[C@@H](C)/C=C/C=C/C=C/C=C/C=C/C=C/C=C/[C@H](O[C@@H]2O[C@H](C)[C@@H](O)[C@H](N)[C@@H]2O)C[C@@H]2O[C@](O)(C[C@@H](O)[C@H](O)CC[C@@H](O)C[C@@H](O)C[C@@H](O)CC(=O)O[C@H]1C)C[C@H](O)[C@H]2C(=O)O | ATCC 14053 | broth dilution | MIC | 2 µg/mL
Cc1c(-c2ccccc2)c(=O)oc2ccc(-c3cc(-c4ccc(F)cc4)c4c(n3)-c3ccccc3CC4)cc12 | MTCC 227 | broth dilution / turbidity | MIC | 1000 µg/mL
Cc1ccc(N2NOC(=O)C2S(=O)(=O)Nc2nc(-c3ccc(Br)cc3)cs2)cc1 | MTCC 227 | broth dilution | MIC | 250 µg/mL
CCCC[C@H]1C(=O)O[C@H](C)C(CCCNC(=O)c2cccc(NC=O)c2O)C(=O)O[C@@H](C)[C@@H]1OC(=O)CC(C)C | IFO1061 |  | MIC | 6.25 µg/mL
COC(=O)[C@]12CCC(C)(C)C=C1C1CCC3[C@@]4(C)CCC(=O)C(C)(C)C4CC[C@@]3(C)[C@]1(C)CC2 | ATCC 10231 | broth dilution | MLC | >200 µg/mL
CN1CCN(c2nc(NCCNc3ncnc4c(Br)cc(Br)cc34)nc(NC3CC3)n2)CC1 | MTCC 183 | agar | MIC | 100 µg/mL
C[C@H]1[C@H](O)[C@@H](C)/C=C/C=C/C=C/C=C/C=C/C=C/C=C/[C@H](O[C@@H]2O[C@H](C)[C@@H](O)[C@H](N)[C@@H]2O)C[C@@H]2O[C@](O)(C[C@@H](O)C[C@@H](O)CC[C@H](O)[C@@H](O)C[C@@H](O)CC(=O)O[C@H]1C)C[C@H](O)[C@H]2C(=O)O | ATCC 10231 |  | MIC90 | 0.25 µg/mL
CN(C/C=C/C#CC(C)(C)C)Cc1cccc2ccccc12 | 9 clinical isolates | broth dilution | MIC90 | >16 µg/mL
Cc1ccc(N2NOC(=O)C2S(=O)(=O)Nc2nc3ccc(F)cc3s2)cc1 | MTCC 227 | broth dilution | MIC | 250 µg/mL
O=C1c2cc(CO)cc(O)c2C(=O)c2cc(O)cc(O)c21 | MTCC 227 | broth dilution | MIC | >250 µg/mL
CC1CC(C)CN(c2nc(NCCNc3ncnc4c(Br)cc(Br)cc34)nc(NC3CC3)n2)C1 | MTCC 183 | agar | MIC | 100 µg/mL
COc1ccnc(C(=O)NCCCC2COC(=O)C(Cc3ccccc3)C(OC(=O)C(C)C)C(C)OC2=O)c1O | IFO1061 |  | MIC | >100 µg/mL
Cc1ccc(N2NOC(=O)C2S(=O)(=O)Nc2ccc(-n3c(-c4c(Cl)cccc4[N+](=O)[O-])nc4ccccc4c3=O)cc2)cc1 | MTCC 227 | broth dilution | MIC | 1000 µg/mL
CC(=O)N1CCN(c2ccc(OC[C@H]3CO[C@](Cn4ccnc4)(c4ccc(Cl)cc4Cl)O3)cc2)CC1 | ATCC 60027 | broth dilution | MIC | 20 µg/mL
Cc1ccc(N2NOC(=O)C2S(=O)(=O)Nc2nc(-c3ccc(Cl)cc3Cl)cs2)cc1 | MTCC 227 | broth dilution | MIC | 1000 µg/mL
Cc1ncc([N+](=O)[O-])n1CCO | 18 isolates |  | MIC | >200 µg/mL
Fc1ccccc1N1CCN(c2nc(Cl)nc(NC3CC3)n2)CC1 | MTCC 183 | agar | MIC | 25 µg/mL
C[C@@H]1[C@H](O)[C@@H](C)/C=C/C=C/C=C/C=C/C=C/C=C/C=C/[C@H](OC2O[C@@H](C)[C@H](O)[C@@H](N)[C@H]2O)C[C@@H]2OC(O)(C[C@@H](O)C[C@@H](O)[C@H](O)CC[C@@H](O)C[C@@H](O)CC(=O)C[C@H]1C)C[C@H](O)[C@H]2C(=O)O | MTCC 854 |  | MIC | 300 µg/mL
C[C@H](CCC(=O)NCCS(=O)(=O)O)[C@H]1CC[C@H]2[C@@H]3CC[C@@H]4C[C@H](OS(=O)(=O)O)CC[C@]4(C)C3CC[C@]12C |  |  | MIC | >500 µg/mL
Cc1ccc(-c2cc(-c3ccc4oc(=O)c(-c5ccccc5)c(C)c4c3)nc3c2CCc2ccccc2-3)cc1 | MTCC 227 | broth dilution / turbidity | MIC | 500 µg/mL
COc1ccc(N2CCN(c3nc(Cl)nc(NC4CC4)n3)CC2)cc1 | MTCC 183 | agar | MIC | 100 µg/mL
CCCC[C@H]1C(=O)O[C@H](C)C(CCCCCCCCCCCCCCCNC(=O)c2cccc(NC=O)c2O)C(=O)O[C@@H](C)[C@@H]1OC(=O)CC(C)C | IFO1061 |  | MIC | >100 µg/mL
[Cl][Cu][Cl].c1ccc(CN(Cc2ccccn2)Cc2c3ccccc3cc3ccccc23)nc1 | ATCC 10213 | broth dilution | MIC | >1000 µg/mL

Blank or dashed fields: not listed here. ECn is the concentration giving n% inhibition of infection, replication or growth. A number after MIC or MFC names an inhibition level or a share of isolates.